Values from PubChem BioAssay AID504761 (Drosophila RNAi Screening Center, 2011).
Aim: 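Genome-wide fly cell screen for genes dengue virus requires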 (primary screen). Cells: D.Mel-2 cells from Drosophila. Knock-down reagent: long dsRNA against Drosophila genes. Conditions: infection with dengue virus type 2; dose and infection time not stated. Detection: 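Per well on two replicate plates, imaging gave the percent of cells positive for viral envelope protein, ranked by infection, and a nuclear count of cells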. Direction: infection score: higher = more virus-infected cells. Call rule: 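Very low infection ranking in both replicate wells (chance probability at most 0.065), then a retest showing infection dropped 1.5-fold or more at p below 0.05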. Calls: active = confirmed: knock-down lowers infection; inactive = not picked or not confirmed.
In all, the deposit lists about 22,000 reagents; below is a random part of those that have a named target and a result. Over the whole deposit, 116 (0.52%) were called active. 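Calls depend on retest data that are not deposited; infection was ranked per plate without normalising between plates; the unit of the infection score is not given.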 Unmarked entries are inactive. Further read-outs or replicates are left out here. The record does not give: the amount of reagent, the time to read-out.

no.	gene	PubChem SID	infection score, replicate 1	infection score, replicate 2
1	frma (fra mauro)	SID104198089	12.5	1.61
2	frma (fra mauro)	SID104206387	14.1	34.6
3	Prosalpha3T (Proteasome alpha3 subunit, Testis-specific)	SID104195018	5.38	1.6
4	CG13310	SID104189773	0.22	3.17
5	CG13310	SID104206802	16.9	13.1
6	CG42534	SID104195864	3.22	3.56
7	CG42534	SID104202488	3.2	6.17
8	CG42534	SID104202603	0.99	3.71
9	CG42534	SID104204640	4.54	3.7
10	CG5003	SID104195486	18.3	16.4
11	CG5003	SID104205233	1.42	0.74
12	Cul5 (Cullin 5)	SID104194515	2.25	5.19

The list goes on; the last 2 above are carried over.
no.	gene	PubChem SID	infection score, replicate 1	infection score, replicate 2
11	CG5003	SID104205233	1.42	0.74
12	Cul5 (Cullin 5)	SID104194515	2.25	5.19
13	CG32161	SID104201683	3.29	5.68
14	MstProx	SID104192250	1.65	3.63
15	MstProx	SID104192393	7.15	5.95
16	ebd1 (earthbound 1)	SID104188357	8.37	8.63
17	ebd1 (earthbound 1)	SID104207983	27.1	
18	Atg5 (Autophagy-related 5)	SID104197904	8.23	4.32
19	Traf-like (TNF-receptor-associated factor-like)	SID104199686	3.65	2.93
20	CngB (Cyclic nucleotide-gated ion channel subunit B)	SID104184089	5.8	13.8
21	CG12692	SID104197673	8.08	4.62
22	obst-H (obstructor-H)	SID104190727	6.79	3.4
23	obst-H (obstructor-H)	SID104190732	4.86	28.2
